Measured values from several laboratories, pooled; numbers as filed in NIAID ChemDB.

Shared fields: target-level tests; organism: HIV-1; protein: Protease

ICn: concentration for n% inhibition. Rows are shuffled and stem from different studies. Fold resistance: result on the changed form divided by that on wild type. Percent inhibition refers to the dose given; in toxicity tests it is the harm to the cells.

{"smiles": "CC(C)C[C@H](NC(=O)[C@@H](NC(=O)CCCCCCCCCCCCCCC(=O)N[C@@H](CC(N)=O)C(=O)N[C@@H](Cc1ccccc1)C(=O)O)C(C)O)C(=O)N[C@@H](Cc1cc(I)c(Oc2cc(I)c(O)c(I)c2)c(I)c1)C(N)=O", "read-out": "Ki", "result": "0.071 µM"}
{"smiles": "CC[C@H](C)[C@H](NC(=O)[C@@H]1CCCN1C(=O)[C@H](O)[C@H](CC1CCCCC1)NC(=O)[C@H](CC(N)=O)NC(=O)CCc1ccccc1)C(=O)N[C@H](C(N)=O)C(C)C", "read-out": "inhibition", "dose": "5 µM", "result": "18.7%"}
{"smiles": "COc1ccc(C[C@H](NC(=O)C(=O)N[C@@H](Cc2ccc(OC)cc2)C(=O)OCC(C)C)C(=O)OCC(C)C)cc1", "method": "absorbance", "read-out": "inhibition", "dose": "10 µM", "result": "<10%"}
{"smiles": "CC(C)C[C@H](NC(=O)[C@@H](NC(=O)CCCCCCCCCCCCCCC(=O)N[C@@H](CS(C)(=O)=O)C(=O)N[C@@H](Cc1ccccc1)C(=O)O)C(C)O)C(=O)N[C@@H](Cc1ccc(-c2ccccc2)cc1)C(N)=O", "method": "HPLC", "read-out": "IC50", "result": "0.51 µM"}
{"smiles": "CC(C)[C@H](NC(=O)[C@H](C)NC(=O)OCc1ccccc1)C(=O)N[C@@H](Cc1ccccc1)[C@@H](O)[C@H](O)[C@H](Cc1ccccc1)NC(=O)[C@@H](NC(=O)[C@H](C)NC(=O)OCc1ccccc1)C(C)C", "mutations": "PR-V82A", "read-out": "fold resistance", "result": "3"}
{"smiles": "CC(C)COC(=O)C(Cc1ccc(F)cc1)NC(=O)C(=O)NC(Cc1ccc(F)cc1)C(=O)OCC(C)C", "method": "absorbance", "read-out": "inhibition", "dose": "10 µM", "result": "30%"}
{"smiles": "CC(C)C[C@H](NC(=O)[C@@H](NC(=O)CCCCCCCCCCCCCCC(=O)N[C@@H](CC(N)=O)C(=O)N[C@@H](Cc1ccccc1)C(=O)O)C(C)O)C(=O)N[C@@H](CCc1ccccc1)C(N)=O", "read-out": "Ki", "result": "2.15 µM"}
{"smiles": "CC(C)(C)NC(=O)[C@@H]1Cc2ccccc2N1C(=O)[C@@H](O)[C@H](Cc1ccccc1)NC(=O)[C@H](CC(N)=O)NC(=O)OCc1ccccc1", "read-out": "inhibition", "dose": "5 µM", "result": "4.8%"}
{"smiles": "CSCC[C@H](NC(=O)CCCCCCCCCCCCCCC(=O)N[C@H](C(=O)N[C@@H](CC(C)C)C(=O)N[C@H](C(N)=O)C1CCCCC1)C(C)O)C(=O)N[C@@H](Cc1ccccc1)C(=O)O", "method": "HPLC", "read-out": "IC50", "result": "0.67 µM"}
{"smiles": "CC[C@@H](C)[C@H](NC(=O)[C@@H]1CCCN1C(=O)[C@@H](O)[C@H](CC1CCCCC1)NC(=O)[C@H](CSC)NC(=O)CCc1ccccc1)C(=O)N[C@H](C(N)=O)C(C)C", "read-out": "inhibition", "dose": "5 µM", "result": "9.1%"}
{"smiles": "CC[C@H](C)[C@H](NC(=O)[C@@H](NC(=O)CCCCCCCCCCCCCCC(=O)N[C@@H](CC(N)=O)C(=O)N[C@@H](Cc1ccccc1)C(=O)O)C(C)O)C(=O)N[C@@H](Cc1ccccc1)C(N)=O", "mutations": "PR-L10I K45R I54V L63P A71V V82T L90M I93L", "read-out": "fold resistance", "result": "~1"}
{"smiles": "CC(C)[C@H](NC(=O)[C@H](C)NC(=O)[C@H](CO)NC(=O)OCc1ccccc1)C(=O)N[C@@H](Cc1ccccc1)[C@@H](O)[C@H](O)[C@H](Cc1ccccc1)NC(=O)[C@@H](NC(=O)[C@H](C)NC(=O)[C@H](CO)NC(=O)OCc1ccccc1)C(C)C", "mutations": "PR-V82F", "read-out": "fold resistance", "result": "3.41"}
{"smiles": "CC(C)C[C@H](NC(=O)[C@@H](NC(=O)CCCCCCCCCCCCCCC(=O)N[C@@H](Cc1ccc(N)cc1)C(=O)N[C@@H](Cc1ccccc1)C(=O)O)C(C)O)C(=O)N[C@@H](Cc1ccc(-c2ccccc2)cc1)C(N)=O", "method": "HPLC", "read-out": "IC50", "result": "1.02 µM"}
{"smiles": "CC(O)[C@H](NC(=O)CCCCCCCCCCCCCCC(=O)N[C@@H](CC(N)=O)C(=O)N[C@@H](Cc1ccccc1)C(=O)O)C(=O)N[C@@H](CCc1ccccc1)C(=O)N[C@@H](Cc1ccccc1)C(N)=O", "read-out": "Ki", "result": "0.82 µM"}
{"smiles": "CC[C@H](C)[C@H](NC(=O)[C@@H]1CCCN1C(=O)[C@@H](O)[C@H](Cc1ccccc1)NC(=O)[C@H](CO)NC(=O)CCc1ccccc1)C(=O)N[C@H](C(N)=O)C(C)C", "read-out": "inhibition", "dose": "5 µM", "result": "78.5%"}
{"smiles": "CCCCC(CC(=O)[C@H](CCCC)NC(=O)c1cnc2ccccc2n1)C(=O)N[C@@H](CCC(N)=O)C(=O)N[C@@H](CCCN=C(N)N)C(N)=O", "method": "fluorescence", "read-out": "IC10", "result": "26 µM"}
{"smiles": "CC(O)[C@H](NC(=O)CCCCCCCCCCCCCCC(=O)N[C@@H](CC(N)=O)C(=O)N[C@@H](Cc1ccccc1)C(=O)O)C(=O)N[C@@H](CC1CCCCC1)C(=O)N[C@@H](Cc1ccccc1)C(N)=O", "method": "HPLC", "read-out": "IC50", "result": "1.6 µM"}
{"smiles": "CC[C@@H](C)[C@H](NC(=O)[C@@H]1CCCN1C(=O)[C@@H](O)[C@H](CC1CCCCC1)NC(=O)[C@H](CC(N)=O)NC(=O)COc1cccc2ccccc12)C(=O)N[C@H](C(N)=O)C(C)C", "read-out": "inhibition", "dose": "5 µM", "result": "99.5%"}
{"smiles": "CC(C)C[C@H](NC(=O)[C@@H](NC(=O)CCCCCCCCCCCCCCC(=O)N[C@@H](Cc1ccc(N)cc1)C(=O)N[C@@H](Cc1ccccc1)C(=O)O)C(C)O)C(=O)N[C@H](C(N)=O)C1CCCCC1", "method": "HPLC", "read-out": "IC50", "result": "0.9 µM"}
{"smiles": "CC(C)C[C@H](NC(=O)[C@@H](NC(=O)CCCCCCCCCCCCCCC(=O)N[C@@H](CC(N)=O)C(=O)N[C@@H](Cc1ccccc1)C(=O)O)C(C)O)C(=O)N[C@@H](Cc1ccc(N)cc1)C(N)=O", "read-out": "Ki", "result": "1.41 µM"}
{"smiles": "CC[C@H](C)COC(=O)C(Cc1ccccc1)NC(=O)C(=O)NC(Cc1ccccc1)C(=O)OC[C@@H](C)CC", "method": "absorbance", "read-out": "inhibition", "dose": "10 µM", "result": "45%"}
{"smiles": "CC(C)C[C@H](NC(=O)[C@@H](NC(=O)CCCCCCCCCCCCCCC(=O)N[C@@H](CC(N)=O)C(=O)N[C@@H](Cc1ccccc1)C(=O)O)C(C)O)C(=O)N[C@H](C(N)=O)C1CCCCC1", "mutations": "PR-L10I K45R I54V L63P A71V V82T L90M I93L", "read-out": "fold resistance", "result": "~1"}
{"smiles": "CC(C)NC(=O)[C@@H]1CCCN1C(=O)[C@@H](O)[C@H](Cc1ccccc1)NC(=O)[C@H](CC(N)=O)NC(=O)OCc1ccccc1", "read-out": "inhibition", "dose": "5 µM", "result": "90%"}
{"smiles": "CC(C)COC(=O)C(Cc1cccc(F)c1)NC(=O)C(=O)NC(Cc1cccc(F)c1)C(=O)OCC(C)C", "method": "absorbance", "read-out": "inhibition", "dose": "10 µM", "result": "24%"}
{"smiles": "CC(C)C[C@H](NC(=O)[C@H](Cc1ccccc1)NC(=O)CCCCCCCCCCCCCCC(=O)N[C@@H](CC(N)=O)C(=O)N[C@@H](Cc1ccccc1)C(=O)O)C(=O)N[C@@H](Cc1ccccc1)C(N)=O", "read-out": "Ki", "result": "0.18 µM"}
{"smiles": "CON[C@H](C(=O)NC(=O)[C@H]1N(C(=O)[C@@H](O)[C@H](Cc2ccccc2)NC(=O)[C@@H](NC(=O)[C@H](Cc2ccccc2)NC(C)=O)C(C)C)CSC1(C)C)C(C)C", "mutations": "PR-V82F", "read-out": "fold resistance", "result": "2.29"}
{"smiles": "CC(C)C[C@H](NC(=O)[C@@H](NC(=O)CCCCCCCCCCCCCCC(=O)N[C@@H](Cc1ccc(N)cc1)C(=O)N[C@@H](Cc1ccccc1)C(=O)O)C(C)O)C(=O)N[C@@H](Cc1ccccc1)C(N)=O", "read-out": "Ki", "result": "0.26 µM"}
{"smiles": "Cc1ccc(S(=O)(=O)N[C@@H](C)C(=O)N[C@H](C(=O)N[C@@H](Cc2ccccc2)[C@@H](O)[C@H](O)[C@H](Cc2ccccc2)NC(=O)[C@@H](NC(=O)[C@H](C)NS(=O)(=O)c2ccc(C)cc2)C(C)C)C(C)C)cc1", "mutations": "PR-V82F", "read-out": "fold resistance", "result": "1.2"}